Test: toxicity in vivo, LD50 after intracerebroventricular injection
Settings: mouse, icv or intrathecal, 20 g C57/BL6 mice
Method: Groups of six to eight mice per dose were injected with 5 μl peptide solution containing 0.1% (w/v) bovine serum albumin and 0.9% (w/v) NaCl. The LD50 values are set out in Table 5.

Work on `CC[C@H](C)[C@@H]1NC(=O)[C@H](CCCCN)NC(=O)[C@@H](NC(=O)[C@H](CCCCN)NC(=O)[C@@H](NC(=O)[C@H](CC(N)=O)NC(=O)[C@@H](NC(=O)[C@@H](NC(=O)[C@@H](NC(=O)CN)C(C)C)[C@@H](C)CC)[C@@H](C)CC)C(C)C)CSSC[C@@H]2NC(=O)[C@H](CCCCN)NC(=O)CNC(=O)[C@H](Cc3ccccc3)NC(=O)[C@H](CCCNC(=N)N)NC(=O)[C@H](CCSC)NC(=O)CNC(=O)[C@H](C)NC(=O)[C@H](CCCCN)NC(=O)[C@H](CCCCN)NC(=O)[C@@H]3CSSC[C@@H](C(=O)N[C@H](C(=O)N4CCC[C@H]4C(=O)N[C@@H](CCCCN)C(=O)O)[C@@H](C)O)NC(=O)[C@H](Cc4c[nH]cn4)NC(=O)[C@H](CSSC[C@H](NC(=O)[C@H](CCC(N)=O)NC(=O)[C@H](CCCNC(=N)N)NC(=O)[C@H](CO)NC1=O)C(=O)N[C@@H](CC(C)C)C(=O)N[C@@H](CCC(=O)O)C(=O)N1CCC[C@H]1C(=O)N3)NC(=O)[C@H](CCCCN)NC(=O)CNC(=O)[C@H](CC(N)=O)NC(=O)[C@H](CCSC)NC2=O` [OsK1, reference compound] yielded an LD50 of 2 µg/kg.

— patent US7745575B1 (Cellpep Pharma Inc., priority 2004, dated 2010)
